Source: publication PMC10415612

Tests used:
[1] = target: T1, HspR WT (Mycobacterium tuberculosis H37Rv) (UniProt O06302); test: binding assay; details: recombinant protein, residues 2-126, protein details: expression tag removed (TEV)
T1 sequence (looked up): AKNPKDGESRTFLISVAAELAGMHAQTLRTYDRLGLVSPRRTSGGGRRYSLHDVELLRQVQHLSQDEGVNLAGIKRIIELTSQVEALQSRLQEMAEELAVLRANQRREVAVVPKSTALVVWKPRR

[2] = target: T2, HspRΔC9 del118-126 (Mycobacterium tuberculosis H37Rv) (UniProt O06302); test: binding assay; details: 20S CPOG; recombinant protein; residues 2-117; protein details: expression tag removed (TEV)
T2 sequence (looked up): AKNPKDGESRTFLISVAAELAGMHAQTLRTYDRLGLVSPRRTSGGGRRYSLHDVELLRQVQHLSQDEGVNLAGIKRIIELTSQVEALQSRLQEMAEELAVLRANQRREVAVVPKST

Measured: binding result

CCGTCGAGGCAAGCTTGAGCGGGGTGCACTCATCATAGTGCAGGAAAGAA (double strand) [HAIR motif operator DNA]
binds: [1]; Bpa-Fl 200 nM, HspR:DNA 1:1, 20 C | [1] | [2]

Construct, isoform or probe ends are uncertain for at least one entry. At least one verdict was read from the data and is not stated in words by the source. Tags and fusion partners may be left off the protein sequences shown.
